Measurements reported in PubChem BioAssay AID1259414 (Drosophila RNAi Screening Center, 2018)

Purpose: 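Fly genes that alter Wolbachia amount inside host cells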 (primary screen)
Cells: Drosophila JW18 cells infected with Wolbachia
Reagent: long dsRNA against Drosophila genes, 0.25 µg dsRNA per well of a 384-well plate
Timing: 5 days
Challenge: cells persistently infected with Wolbachia before knock-down; no added drug
Detection: 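Automated imaging of bacterial rRNA staining divided by host cell count, reported as plate-normalised robust z-score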
Reading the numbers: Wolbachia per cell robust z: higher = more Wolbachia per host cell than the plate typical
Active means: 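Hit when robust z is 1.5 or more, or -1.5 or less, in at least two of three replicates; excludes dsRNAs with several or no targets, genes not expressed in JW18 and well A1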
The deposit covers about 24,000 reagents; shown is a random part of those that have a named target and a result. Over the whole deposit, about 1,210 (5%) got an active call. 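Inactive calls also include excluded dsRNAs with several or no targets, genes unexpressed in JW18, and well A1, regardless of score.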 Unmarked entries are inactive. Reagents against one gene are numbered here.

| Target gene | dsRNA no. | Wolbachia per cell robust z, rep 1 | Wolbachia per cell robust z, rep 2 | Wolbachia per cell robust z, rep 3 |
| --- | --- | --- | --- | --- |
| CG12693 | 1 | -1.98 | 0.944 | 0.376 |
| Him | 1 | -5.11 | 0.611 | -0.528 |
| Pvr | 1 | 4.5 (active) | 7.88 | 9.67 |
| Pvr | 2 | -1.43 | -1.21 | -2.34 |
| CG5773 | 1 | -2.61 | 1.01 | 0.72 |
| CG5773 | 2 | 0.289 | -0.614 | 0.0218 |
| hwt | 1 | 0.0358 | -1.04 | -0.216 |
| hwt | 2 | 0.46 | 0.543 | -2.12 |
| hwt | 3 | -0.875 | 0.312 | -14.3 |
| hwt | 4 | -3.88 | -0.956 | -1.19 |
| hwt | 5 | 0.251 | -1.62 | 0.375 |
| t | 1 | 0.118 | 0.0924 | -2.04 |
| t | 2 | -0.533 | -0.298 | 0.287 |
| Kal1 | 1 | 0.662 | 0.485 | 0.961 |
| CG3288 | 1 | 0.479 | -0.243 | -0.885 |
| lncRNA:CR32160 | 1 | -1.27 | 0.487 | -0.15 |
| CG18063 | 1 | 2.13 | 1.55 | 0.536 |
| CG32459 | 1 | -0.247 | -3.05 | -2.26 |
| l(2)SH0834 | 1 | -0.407 | 0.0116 | 1.91 |
| CG11498 | 1 | 0.682 | -0.287 | -1.83 |
| CG14212 | 1 | 0.501 | 0.32 | 0.703 |
| CG14212 | 2 | 0.71 | -0.596 | -1.53 |
| CG14212 | 3 | -0.672 | -0.614 | 0.371 |
| CG14556 | 1 | -3.31 | -1.51 | -0.466 |
| Rab2 | 1 | 1.09 | 0.7 | 1.22 |
| Rab2 | 2 | 1.04 | 0.577 | 0.233 |
| RpS11 | 1 | 2.64 (active) | 2.66 | 2.37 |
| RpS11 | 2 | -0.527 | -0.087 | 0.77 |
| CG13250 | 1 | 0.0575 | -0.99 | 0.619 |
| CG13250 | 2 | 1.12 | -0.0684 | 0.495 |
| CG34115 | 1 | 0.036 | 0.36 | -0.937 |
| Cpr62Ba | 1 | 0.711 | 1.07 | 0.665 |
| CG15186 | 1 | 0.379 | -0.0616 | -0.0917 |
| CG15186 | 2 | -1.67 | -1.1 | 0.283 |
| CG31371 | 1 | -0.254 | 0.911 | -3.4 |
| tilB | 1 | -0.696 | -1.65 | -0.126 |
| CG14488 | 1 | -0.473 | -0.345 | -0.677 |
| gt | 1 | 0.76 | 0.944 | 1.38 |
| gt | 2 | 0.576 | 0.953 | 1 |
| Osi24 | 1 | 0.331 | -2.47 | -6.79 |
| ken | 1 | 0.218 | 0.376 | 0.00713 |
| ken | 2 | -0.723 | -0.0769 | -0.622 |
| pch2 | 1 | -1.6 | 0.686 | 1.12 |
| pch2 | 2 | -0.0697 | 0.802 | -0.336 |
| CG12851 | 1 | -0.288 | -2.55 | 0.0153 |
| Mpv17 | 1 | 0.732 | 0.337 | -1.25 |
